{"source": "patent US20060111335A1", "about": "“Photoactivated anti-viral and anti-cancer agent” (priority 2002, published 2006)", "tested_on": "Calf thymus DNA", "assay": "Dark association with DNA, UV-Visible titration (Example XI)", "format": "binding", "conditions": "for Aobserved / Δεapp = εf − εapp / εapp / Aobs / [DNA]/Δεapp: pH 7, I=0.15; for Δε = εf − εb: from slope of [DNA]/Δεapp versus [DNA]; for εb, extinction coefficient of the DNA-bound form: εb = εf − Δε", "key": {"[1]": {"conditions": "337 nm, [DNA] 0, [OCTBP] 2.26E−5"}, "[2]": {"conditions": "337 nm, [DNA] 1.30E−4, [OCTBP] 2.12E−5"}, "[3]": {"conditions": "337 nm, [DNA] 1.70E−4, [OCTBP] 2.08E−5"}, "[4]": {"conditions": "337 nm, [DNA] 2.46E−4, [OCTBP] 2.00E−5"}, "[5]": {"conditions": "337 nm, [DNA] 2.81E−4, [OCTBP] 1.96E−5"}, "[6]": {"conditions": "337 nm, [DNA] 3.80E−4, [OCTBP] 1.86E−5"}, "[7]": {"conditions": "337 nm, [DNA] 4.53E−5, [OCTBP] 2.21E−5"}, "[8]": {"conditions": "380 nm, [DNA] 0, [BISNMe2] 3.02E−5"}, "[9]": {"conditions": "380 nm, [DNA] 1.30E−4, [BISNMe2] 2.84E−5"}, "[10]": {"conditions": "380 nm, [DNA] 1.70E−4, [BISNMe2] 2.78E−5"}, "[11]": {"conditions": "380 nm, [DNA] 2.09E−4, [BISNMe2] 2.72E−5"}, "[12]": {"conditions": "380 nm, [DNA] 2.46E−4, [BISNMe2] 2.67E−5"}, "[13]": {"conditions": "380 nm, [DNA] 2.81E−4, [BISNMe2] 2.62E−5"}, "[14]": {"conditions": "380 nm, [DNA] 3.16E−4, [BISNMe2] 2.57E−5"}, "[15]": {"conditions": "380 nm, [DNA] 8.88E−5, [BISNMe2] 2.89E−5"}}}
{"smiles": "CC1=C[N]2c3c4c(ccc3=C1C)=C(C)C(C)=C[N]4[Rh+]21([Cl])([Cl])[N]2C=C(C)C(C)=c3ccc4c(c32)[N]1C=C(C)C=4C.[Cl-]", "note": "[OCTBP, cis-dichlorobis(3,4,7,8-tetramethyl-1,10-phenanthroline) rhodium(III) chloride]", "values": [{"measurement": "Aobserved", "setting": "[1]", "value": 0.216}, {"measurement": "Δεapp = εf − εapp", "setting": "[1]", "value": 0}, {"measurement": "εapp", "setting": "[1]", "value": 9558}, {"measurement": "Aobserved", "setting": "[2]", "value": 0.209}, {"measurement": "Δεapp = εf − εapp", "setting": "[2]", "value": 300}, {"measurement": "εapp", "setting": "[2]", "value": 9858}, {"measurement": "Aobserved", "setting": "[3]", "value": 0.206}, {"measurement": "Δεapp = εf − εapp", "setting": "[3]", "value": 346}, {"measurement": "εapp", "setting": "[3]", "value": 9904}, {"measurement": "Aobserved", "setting": "[4]", "value": 0.199}, {"measurement": "Δεapp = εf − εapp", "setting": "[4]", "value": 392}, {"measurement": "εapp", "setting": "[4]", "value": 9950}, {"measurement": "Aobserved", "setting": "[5]", "value": 0.195}, {"measurement": "Δεapp = εf − εapp", "setting": "[5]", "value": 391}, {"measurement": "εapp", "setting": "[5]", "value": 9949}, {"measurement": "Aobserved", "setting": "[6]", "value": 0.187}, {"measurement": "Δεapp = εf − εapp", "setting": "[6]", "value": 496}, {"measurement": "εapp", "setting": "[6]", "value": 10054}, {"measurement": "Aobserved", "setting": "[7]", "value": 0.214}, {"measurement": "Δεapp = εf − εapp", "setting": "[7]", "value": 125}, {"measurement": "εapp", "setting": "[7]", "value": 9683}, {"measurement": "Δε = εf − εb", "value": 769.23}, {"measurement": "εb, extinction coefficient of the DNA-bound form", "value": 8788.77}]}
{"smiles": "CN(C)C1=c2ccc3c4c2[N](C=C1)[Rh+]1([Cl])([Cl])([N]4C=CC=3N(C)C)[N]2C=CC(N(C)C)=c3ccc4c(c32)[N]1C=CC=4N(C)C.[Cl-]", "note": "[BISNMe2, cis-dichlorobis(N,N-dimethylamino)-1,10-phenanthroline} rhodium(III) chloride]", "values": [{"measurement": "Aobs", "setting": "[8]", "value": 0.4550}, {"measurement": "[DNA]/Δεapp", "setting": "[8]", "value": 0}, {"measurement": "Δεapp = εf − εapp", "setting": "[8]", "value": 0}, {"measurement": "εapp", "setting": "[8]", "value": 15066}, {"measurement": "Aobs", "setting": "[9]", "value": 0.3086}, {"measurement": "[DNA]/Δεapp", "setting": "[9]", "value": "3.10E−8"}, {"measurement": "Δεapp = εf − εapp", "setting": "[9]", "value": 4200}, {"measurement": "εapp", "setting": "[9]", "value": 10866}, {"measurement": "Aobs", "setting": "[10]", "value": 0.2896}, {"measurement": "[DNA]/Δεapp", "setting": "[10]", "value": "3.66E−8"}, {"measurement": "Δεapp = εf − εapp", "setting": "[10]", "value": 4649}, {"measurement": "εapp", "setting": "[10]", "value": 10417}, {"measurement": "Aobs", "setting": "[11]", "value": 0.2756}, {"measurement": "[DNA]/Δεapp", "setting": "[11]", "value": "4.24E−8"}, {"measurement": "Δεapp = εf − εapp", "setting": "[11]", "value": 4934}, {"measurement": "εapp", "setting": "[11]", "value": 10132}, {"measurement": "Aobs", "setting": "[12]", "value": 0.2668}, {"measurement": "[DNA]/Δεapp", "setting": "[12]", "value": "4.85E−8"}, {"measurement": "Δεapp = εf − εapp", "setting": "[12]", "value": 5073}, {"measurement": "εapp", "setting": "[12]", "value": 9993}, {"measurement": "Aobs", "setting": "[13]", "value": 0.2644}, {"measurement": "[DNA]/Δεapp", "setting": "[13]", "value": "5.65E−8"}, {"measurement": "Δεapp = εf − εapp", "setting": "[13]", "value": 4974}, {"measurement": "εapp", "setting": "[13]", "value": 10092}, {"measurement": "Aobs", "setting": "[14]", "value": 0.2526}, {"measurement": "[DNA]/Δεapp", "setting": "[14]", "value": "6.03E−8"}, {"measurement": "Δεapp = εf − εapp", "setting": "[14]", "value": 5237}, {"measurement": "εapp", "setting": "[14]", "value": 9829}, {"measurement": "Aobs", "setting": "[15]", "value": 0.3419}, {"measurement": "[DNA]/Δεapp", "setting": "[15]", "value": "2.74E−8"}, {"measurement": "Δεapp = εf − εapp", "setting": "[15]", "value": 3236}, {"measurement": "εapp", "setting": "[15]", "value": 11830}, {"measurement": "Δε = εf − εb", "value": 5000}, {"measurement": "εb, extinction coefficient of the DNA-bound form", "value": 10066}]}
